Results of unrelated studies side by side (data: NIAID ChemDB).

Common to all: growth or infection tests; organism: HIV-1

An empty or dashed field is not shown. ECn: concentration that inhibits the pathogen or its effect by n%. Conditions beyond the fields shown may differ between rows.

smiles,cell line,read by,strain,endpoint,mutations,result
O=[N+]([O-])c1ccc(/C=N/Nc2ccnc3c(C(F)(F)F)cc(Cl)cc23)o1,CEM,cytopathic effect / MTT,IIIB,EC50,-,0.0165 µg/mL
COc1ccc(S(=O)(=O)N(CC(C)C)C[C@@H](O)CCN(CC2CCCC2)S(=O)(=O)C2CCC(OC)OC2)cc1,CEM,p24,IIIB,EC50,-,<1 µM
CCc1c(Cc2cccc(Cc3[nH]c(=S)[nH]c(=O)c3CC)c2)[nH]c(=S)[nH]c1=O,MT-4,cytopathic effect / MTT,NNRTI-resistant,EC50,RT-Y181C,>100 µM
Cc1c(O)cccc1C(=O)N[C@@H](CSc1ccccc1)[C@H](O)CN1C[C@H]2SCC[C@H]2C[C@H]1C(=O)NC(C)(C)C,CEM,cytopathic effect / XTT,SN 123,EC90,-,0.0097 µM
C=CCOCn1c(Cc2cccc(Cc3[nH]c(=O)[nH]c(=O)c3CC)c2)c(CC)c(=O)[nH]c1=O,MT-4,cytopathic effect / MTT,-,EC50,-,11 µM
C[C@@H](N)C(=O)N1CCC[C@H]1C(=O)NCC(=O)N[C@@H](Cc1c[nH]c2ccccc12)C(N)=O,CEM,-,IIIB,EC50,-,500 µM
Clc1ccc(N=Cc2cc3ccccc3nc2Nc2ccc(Cl)cc2)cc1,TZM-bl,luminescence,UG070,EC50,-,>100 µM
NC(=O)[C@@H](N)Cc1ccccc1,CEM,-,IIIB,EC50,-,500 µM
Nc1cccc(S(=O)(=O)N(CC2CCCC2)C[C@@H](O)CN(CCc2ccccc2)C(=O)O[C@H]2CCOC2)c1,CEM,p24,IIIB,EC90,-,0.1 µM
CC(C)CC(N)C(N)=O,CEM,-,IIIB,EC50,-,500 µM
CCc1c(Cc2cccc(Cc3nc(SC)n(C)c(=O)c3CC)c2)nc(SC)nc1OC,MT-4,cytopathic effect / MTT,RT-K103N+Y181C NNRTI-resistant,EC50,RT-K103N Y181C,>80 µM
Cc1cnccc1C(=O)N[C@H](CSc1ccccc1)[C@@H](O)CN1CCN(Cc2cccnc2)C[C@H]1C(=O)NC(C)(C)C,CEM,cytopathic effect / MTT,IIIB,EC50,-,0.328 µg/mL
O=C(/C=C(\O)c1ncn[nH]1)c1ccc(Cc2ccc(F)cc2)o1,MT-4,-,IIIB,EC50,-,0.2 µM
CCOCn1c(Cc2cccc(Cc3c(CC)c(=O)[nH]c(=O)n3COCC)c2)c(CC)c(=O)[nH]c1=O,MT-4,cytopathic effect / MTT,-,EC50,-,14 µM
CCOC(=O)/C=C/c1ccc2c(c1)c(=O)c(/C(O)=C/C(=O)C(=O)OCC)cn2Cc1ccc(F)cc1,TZM-bl,p24,NL4-3,EC50,-,>140 µM
COc1ccc(S(=O)(=O)N(CC(C)C)C[C@@H](O)CCN(CC2CCCC2)S(=O)(=O)CC2CCS(=O)(=O)CC2)cc1,CEM,p24,IIIB,EC50,-,<1 µM
C[C@]1(CO)O[C@@H](n2ccc(N)nc2=O)[C@H](O)[C@@H]1O,MT-4,-,IIIB,EC50,-,>100 µM
CC(C)CN(CC(O)C(=O)N1CSC[C@H]1C(=O)NC(C)(C)C)S(=O)(=O)c1ccccc1,CEM,p24,IIIB,EC90,-,1 µM
Cc1cn([C@H]2C=C[C@@H](CO)O2)c(=O)[nH]c1=O,PBMC,p24,IIIB,EC50,-,0.018 µM
CCOCn1c(Cc2cccc(Cc3[nH]c(=O)[nH]c(=O)c3CC)c2)c(CC)c(=O)[nH]c1=O,MT-4,cytopathic effect / MTT,-,EC50,-,47 µM
C[C@]1(CO)O[C@@H](n2cnc3c(=O)[nH]c(N)nc32)[C@H](O)[C@@H]1O,MT-4,-,IIIB,EC50,-,>100 µM
O=C(N[C@@H](Cc1ccccc1)C(=O)C(F)(F)C(Cc1ccccc1)NS(=O)(=O)c1ccccc1)O[C@H]1CCOC1,CEM,p24,IIIB,EC90,-,1 µM
Cc1c(NS(C)(=O)=O)cccc1C(=O)N[C@@H](Cc1ccccc1)[C@@H](O)CN1C[C@H]2CCCC[C@H]2C[C@H]1C(=O)NC(C)(C)C,CEM,cytopathic effect / MTT,IIIB,EC50,-,2.08 µg/mL
COc1cccc2ccc(/C=C/C(=O)Nc3ccccc3)nc12,TZM-bl,luminescence,VB59,EC50,-,24.13 µM
Cc1c(N)cccc1C(=O)N[C@@H](Cc1ccccc1)[C@@H](O)CN1C[C@H]2CCCC[C@H]2C[C@H]1C(=O)NC(C)(C)C,MT-2,cytopathic effect / MTT,RF,EC50,-,0.243 µg/mL
C[C@H](N)C(=O)O,CEM,-,IIIB,EC50,-,500 µM
COC(=O)[C@H](C)NP(=O)(OC[C@@H]1C=C[C@H](n2cc(C)c(=O)[nH]c2=O)O1)Oc1ccc(OC)cc1,PBMC,p24,IIIB,EC50,-,0.033 µM
COc1ccccc1-c1nnc(-c2ccc3cccc(OC)c3n2)o1,TZM-bl,luminescence,VB59,EC50,-,>600 µM
CC(C)(C)NC(=O)[C@@H]1C[C@@H]2CCCC[C@@H]2CN1C[C@@H](O)[C@H](Cc1ccccc1)NC(=O)c1cccc(O)c1Cl,MT-2,cytopathic effect / MTT,RF,EC50,-,0.518 µg/mL
COc1cccc2ccc(/C=C/C(=O)Nc3ccccc3F)nc12,TZM-bl + HL2/3,cell fusion / luminescence,-,EC50,-,0.96 µM
Cc1cn([C@H]2OC(C)(CO)[C@H](O)[C@@H]2O)c(=O)[nH]c1=O,MT-4,-,IIIB,EC50,-,>100 µM
COc1ccc(S(=O)(=O)N(CC(C)C)C[C@@H](O)CCN(CC2CCCC2)S(=O)(=O)C2C(=O)CC(C)(C)S(=O)(=O)C2=O)cc1,CEM,p24,IIIB,EC50,-,<1 µM
Cc1ccc(NC(=O)CN2CCN(Cc3nc(-c4ccc(F)cc4)no3)CC2)cc1,PBMC,RT activity,92BR025,EC50,-,7.8 µM

The last 5 rows once more:

smiles,cell line,read by,strain,endpoint,mutations,result
CC(C)(C)NC(=O)[C@@H]1C[C@@H]2CCCC[C@@H]2CN1C[C@@H](O)[C@H](Cc1ccccc1)NC(=O)c1cccc(O)c1Cl,MT-2,cytopathic effect / MTT,RF,EC50,-,0.518 µg/mL
COc1cccc2ccc(/C=C/C(=O)Nc3ccccc3F)nc12,TZM-bl + HL2/3,cell fusion / luminescence,-,EC50,-,0.96 µM
Cc1cn([C@H]2OC(C)(CO)[C@H](O)[C@@H]2O)c(=O)[nH]c1=O,MT-4,-,IIIB,EC50,-,>100 µM
COc1ccc(S(=O)(=O)N(CC(C)C)C[C@@H](O)CCN(CC2CCCC2)S(=O)(=O)C2C(=O)CC(C)(C)S(=O)(=O)C2=O)cc1,CEM,p24,IIIB,EC50,-,<1 µM
Cc1ccc(NC(=O)CN2CCN(Cc3nc(-c4ccc(F)cc4)no3)CC2)cc1,PBMC,RT activity,92BR025,EC50,-,7.8 µM